Pooled drug test results. Numbers come from NIAID ChemDB, via PubChem.

All rows: growth or infection tests; organism: Mycobacterium avium; measure: MIC

Two numbers with a dash give a range or band. Rows are shuffled and stem from different studies. An empty or dashed field is not shown.

SMILES,strain or isolate,read by,conditions,value
CC1=CC(=O)c2c(O)cccc2C1=O,MAC104,-,-,12.5 µg/mL
CC1CN(c2c(F)cc3c(=O)c(C(=O)O)cn(C4CC4)c3c2F)CCN1,1915112,-,-,2–4 µg/mL
CC1CN(c2c(F)c(N)c3c(=O)c(C(=O)O)cn(C4CC4)c3c2F)CCN1C,PI4/44,-,-,0.25 µg/mL
CCC1=C(CC)C(=O)c2ccccc2C1=O,MAC104,-,-,200 µg/mL
c1cncc(CSc2ncn[nH]2)c1,MY330/88,-,-,1000 µM
CO[C@H]1/C=C/O[C@@]2(C)Oc3c(C)c(O)c4c(O)c(c(/C=N/N5CCN(C)CC5)c(O)c4c3C2=O)NC(=O)/C(C)=C\C=C\[C@H](C)[C@H](O)[C@@H](C)[C@@H](O)[C@@H](C)[C@H](OC(C)=O)[C@@H]1C,Isolate 90-0177,-,-,30 µg/mL
Cc1[nH]c(-c2ccc(Cl)cc2)c(CN2CCN(C)CC2)c1CN1CCN(C)CC1,103317,-,-,>64 µg/mL
CO[C@H]1/C=C/O[C@@]2(C)Oc3c(C)c(O)c4c(=O)c(c5oc6cc(N7CCN(CC(C)C)CC7)cc(=O)c6nc5c4c3=C2O)NC(=O)/C(C)=C\C=C\[C@H](C)[C@H](O)[C@@H](C)[C@@H](O)[C@@H](C)[C@H](OC(C)=O)[C@@H]1C,3354,-,-,0.016 µg/mL
Cc1c(CN2CCOCC2)cc(-c2ccc(Cl)cc2)n1Cc1ccccc1,103317,-,-,>64 µg/mL
c1ccc2[nH]c(SCc3ccncc3)nc2c1,MY330/88,-,-,500 µM
CC1CN(c2c(F)cc3c(=O)c(C(=O)O)cn(C4CC4)c3c2F)CC(C)N1,TMC 1403,-,-,≤0.25 µg/mL
Cc1[nH]c(C)c(CN2CCOCC2)c1CN1CCOCC1,103317,-,-,>64 µg/mL
CC[C@H]1OC(=O)[C@H](C)[C@@H](O[C@H]2C[C@@](C)(OC)[C@@H](O)[C@H](C)O2)[C@H](C)[C@@H](O[C@@H]2O[C@H](C)C[C@H](N(C)C)[C@H]2O)[C@](C)(OC)C[C@@H](C)C(=O)[C@H](C)[C@@H](O)[C@]1(C)O,453,-,-,≤0.5 µg/mL
O=C(O)c1cn(C2CC2)c2c(F)c(N3CCSCC3)c(F)cc2c1=O,TMC 1403,-,-,≤0.25 µg/mL
CCc1cc(C(N)=S)ccn1,453-C clarithromycin-resistant,-,-,>8 µg/mL
CO[C@H]1/C=C/O[C@@]2(C)Oc3c(C)c(O)c4c(O)c(c5c(c4c3C2=O)NC2(CCN(CC(C)C)CC2)N=5)=NC(=O)/C(C)=C\C=C\[C@H](C)[C@H](O)[C@@H](C)[C@@H](O)[C@@H](C)[C@H](OC(C)=O)[C@@H]1C,6-28,-,-,<0.15 µg/mL
c1cncc(CSc2nc3ccccc3o2)c1,MY330/88,-,-,125 µM
O=C1C=CC(=O)c2c(O)cccc21,MAC104,-,-,12.5 µg/mL
O=C(O)c1cn(C2CC2)c2c(F)c(N3CCC(N4CCCC4)C3)c(F)cc2c1=O,1915112,-,-,≤4 µg/mL
CC(C)(C)n1cc(C(=O)O)c(=O)c2cc(F)c(N3CCNCC3)nc21,PI4/44,-,-,1 µg/mL
O=C(O)c1cn(C2CC2)c2c(F)c(N3CCS(=O)(=O)CC3)c(F)cc2c1=O,TMC 1403,-,-,≤0.25 µg/mL
CCCC1=C(CCC)C(=O)c2ccccc2C1=O,MAC104,-,-,400 µg/mL
CCn1cc(C(=O)O)c(=O)c2cc(F)c(N3CCS(=O)CC3)c(F)c21,PI2/6,-,-,8 µg/mL
CC[C@H]1OC(=O)[C@H](C)[C@@H](O[C@H]2C[C@@](C)(OC)[C@@H](O)[C@H](C)O2)[C@H](C)[C@@H](O[C@@H]2O[C@H](C)C[C@H](N(C)C)[C@H]2O)[C@](C)(O)C[C@@H](C)CN(C)[C@H](C)[C@@H](O)[C@]1(C)O,453-C clarithromycin-resistant,-,-,>512 µg/mL
Cc1ccc2nc(SCc3cccc4ccccc34)[nH]c2c1,MY330/88,-,-,62.5 µM
CCCCCCn1c(C)c(CN2CCOCC2)c(CN2CCOCC2)c1-c1ccc(Cl)cc1,103317,-,-,>64 µg/mL
CC[C@@H]1C(=O)OC[C@@H]1Cc1cncn1C,Isolate 733 HIV-positive,-,-,>200 µg/mL
CC(C)(C)c1ccc(CNc2ccc(N3CCSCC3)cc2)cc1,103317,-,-,2 µg/mL
N[C@@H]1CONC1=O,3090,-,-,16 µg/mL
Cc1cc(CN2CCN(C)CC2)c(C)n1C1CCCCC1,103317,-,-,>64 µg/mL
CC1=C(C)C(=O)c2ccccc2C1=O,MAC104,-,-,100 µg/mL
NC1CCN(c2c(F)cc3c(=O)c(C(=O)O)cn(C4CC4)c3c2Cl)C1,II,-,-,32 µg/mL
CC[C@H]1OC(=O)[C@H](C)[C@@H](O[C@H]2C[C@@](C)(OC)[C@@H](O)[C@H](C)O2)[C@H](C)[C@@H](O[C@@H]2O[C@H](C)C[C@H](N(C)C)[C@H]2O)[C@](C)(OC)C[C@@H](C)C(=O)[C@H](C)[C@@H](O)[C@]1(C)O,3344,broth dilution / radiometric,pH 7.4,2 µg/mL
Oc1ccc(O)cc1,MAC104,-,-,1600 µg/mL
c1cc(CSc2ncn[nH]2)ccn1,MY330/88,-,-,1000 µM
CC(C)(O)[C@H](O)COc1c2occc2cc2ccc(=O)oc12,Isolate 733 HIV-positive,-,-,100 µg/mL
c1ccc2c(CNc3ccc(N4CCSCC4)cc3)cccc2c1,103317,-,-,4 µg/mL
Cc1c(F)c(N2CCNC(C)C2)c(C(F)(F)F)c2c1c(=O)c(C(=O)O)cn2C1CC1,PI4/44,-,-,16 µg/mL
CC(N)C1CCN(c2nc3c(cc2F)c(=O)c(C(=O)O)cn3C2CC2)C1,1915112,-,-,32 µg/mL
C[C@@H]1CN(c2c(F)c(N)c3c(=O)c(C(=O)O)cn(C4CC4)c3c2F)C[C@H](C)N1,I,-,-,8 µg/mL
NC(=S)c1cc(SCc2cccnc2)ccn1,MY330/88,-,-,>32 µM
CC[C@H]1C[C@H]2C[C@H]3c4[nH]c5ccc(OC)cc5c4CCN(C2)[C@@H]13,Isolate 733 HIV-positive,-,-,>200 µg/mL
Cc1c(CN2CCN(C)CC2)c(CN2CCN(C)CC2)c(-c2ccc(Cl)cc2)n1C1CCCCC1,103317,-,-,>64 µg/mL
O=C1C=CC(=O)c2ccccc21,MAC104,-,-,100 µg/mL
C=C1C2CC[C@H](C=O)C(O)(C=O)[C@@]2(C)CC[C@@H]1C,Isolate 733 HIV-positive,-,-,>200 µg/mL